Experimental findings from article PMC5722318, “Absence of anti-hypocretin receptor 2 autoantibodies in post pandemrix narcolepsy cases” (PLoS ONE, 2017) are described below.

This assay has as its target soluble DQ0602 monomer (heterodimer of HLA-DQA1*01:02 and HLA-DQB1*06:02) (human). Briefly: peptide competition binding assay, DELFIA time-resolved fluorescence.

The substance “13-mer HA_(143-155) peptide containing wild-type 146N” came in with a percent of Bio-EBV epitope binding left with 40 uM competitor of 43.8%.
Take “21-mer HA_(136-156) peptide containing wild-type 146N”: the percent of Bio-EBV epitope binding left with 40 uM competitor was determined as 10.8%.
